# Source: patent US11820973B2, “Methods and system for interfering with viability of bacteria and related compounds and compositions” (CALIFORNIA INSTITUTE OF TECHNOLOGY, priority 2011, dated 2023)
# Tested on: P. aeruginosa PA14 wild type and feoB::MAR2xT7 mutant
# Experiment: Planktonic growth in 1% TSB-based biofilm medium
# Details: amounts used in the biofilm experiments, batch cultures, 37° C.
molecule,measurement,value
"conalbumin: Fe(III)-binding protein of the transferrin family, an Fe(III) chelator; substantially iron-free, from Sigma-Aldrich (protein, UniProt P02789 20-705, looked up, iron-free, substantially iron-free, from Sigma-Aldrich) Ovotransferrin: APPKSVIRWCTISSPEEKKCNNLRDLTQQERISLTCVQKATYLDCIKAIANNEADAISLDGGQAFEAGLAPYKLKPIAAEVYEHTEGSTTSYYAVAVVKKGTEFTVNDLQGKTSCHTGLGRSAGWNIPIGTLLHRGAIEWEGIESGSVEQAVAKFFSASCVPGATIEQKLCRQCKGDPKTKCARNAPYSGYSGAFHCLKDGKGDVAFVKHTTVNENAPDQKDEYELLCLDGSRQPVDNYKTCNWARVAAHAVVARDDNKVEDIWSFLSKAQSDFGVDTKSDFHLFGPPGKKDPVLKDLLFKDSAIMLKRVPSLMDSQLYLGFEYYSAIQSMRKDQLTPSPRENRIQWCAVGKDEKSKCDRWSVVSNGDVECTVVDETKDCIIKIMKGEADAVALDGGLVYTAGVCGLVPVMAERYDDESQCSKTDERPASYFAVAVARKDSNVNWNNLKGKKSCHTAVGRTAGWVIPMGLIHNRTGTCNFDEYFSEGCAPGSPPNSRLCQLCQGSGGIPPEKCVASSHEKYFGYTGALRCLVEKGDVAFIQHSTVEENTGGKNKADWAKNLQMDDFELLCTDGRRANVMDYRECNLAEVPTHAVVVRPEKANKIRDLLERQEKRFGVNGSEKSKFMMFESQNKDLLFKDLTKCLFKVREGTTYKEFLGDKFYTVISSLKTCNPSDILQMCSFLEGK",Effect on planktonic growth,had no effect on the growth of either strain
